# PSTVd loop 6 mutant pool in Nicotiana benthamiana

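A pool of all variants was put on leaves of three Nicotiana benthamiana plants. Samples came from the inoculated region at 5 days, the leaf margin at 10 and upper systemic leaves at 12.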

Region: loop 6 of PSTVd (intermediate strain), upper and lower strand joined, each 5' to 3', the first 5 letters being the upper strand, closing pairs included. Wild type: UGACCGCGAG. Varied positions (N): UNNNCGNNNG.

Values are reads per thousand in the sample; higher means more abundant, 0 means not found. Each site shows the three plants. "Pool" is the share in the plasmid pool used as inoculum, on the same scale. The inoculated region was read from the minus strand, the other sites from the plus strand. Samples held 36,220 to 57,551 reads, so the smallest values rest on one or two reads.

* UGAACGGGCG (pool 0.157): inoculated region 0.956 / 0.719 / 0.443; leaf margin 0.110 / 0.0504 / 0.116; systemic leaves 0 / 0 / 0
* UACGCGCGGG (pool 0.209): inoculated region 0.174 / 0.162 / 0.111; leaf margin 0 / 0 / 0; systemic leaves 0 / 0 / 0
* UAUCCGCAAG (pool 0.144): inoculated region 0.712 / 0.844 / 0.479; leaf margin 0 / 0.0252 / 0.0696; systemic leaves 0.0180 / 0.0404 / 0.0615
* UUGCCGACAG (pool 0.235): inoculated region 0.0869 / 0.126 / 0.184; leaf margin 0 / 0 / 0.0232; systemic leaves 0 / 0 / 0
* UGUACGCUAG (pool 0.118): inoculated region 0.156 / 0.108 / 0.0738; leaf margin 0.0276 / 0 / 0.0232; systemic leaves 0 / 0 / 0.0205
* UGUGCGCCUG (pool 0.353): inoculated region 0.0695 / 0.126 / 0.0922; leaf margin 0.0276 / 0 / 0.0232; systemic leaves 0 / 0 / 0
* UAGCCGUACG (pool 0.353): inoculated region 0.122 / 0.0180 / 0.111; leaf margin 0.0276 / 0.0504 / 0.0232; systemic leaves 0 / 0 / 0
* UGGUCGCUUG (pool 0.301): inoculated region 0.104 / 0.198 / 0.0738; leaf margin 0 / 0 / 0.0464; systemic leaves 0 / 0 / 0
* UCCGCGCACG (pool 0.209): inoculated region 0.104 / 0.0539 / 0.0184; leaf margin 0 / 0 / 0; systemic leaves 0 / 0 / 0
* UACCCGAAUG (pool 0.196): inoculated region 0.0869 / 0.0898 / 0.0738; leaf margin 0 / 0 / 0; systemic leaves 0 / 0 / 0
* UGAUCGUCGG (pool 0.340): inoculated region 0.0869 / 0.0898 / 0.111; leaf margin 0.0276 / 0 / 0; systemic leaves 0 / 0 / 0
* UAUACGCGUG (pool 0.275): inoculated region 0.0869 / 0.0359 / 0.129; leaf margin 0 / 0 / 0; systemic leaves 0 / 0 / 0
* UGACCGAAAG (pool 0.0392): inoculated region 0.156 / 0.180 / 0.166; leaf margin 0.359 / 1.64 / 0.0232; systemic leaves 0.0719 / 0.101 / 0.185
* UAUGCGAAGG (pool 0.209): inoculated region 0.0695 / 0.0359 / 0.0738; leaf margin 0 / 0 / 0; systemic leaves 0 / 0 / 0
* UCUCCGCCUG (pool 0.261): inoculated region 0.0521 / 0.162 / 0.0184; leaf margin 0 / 0 / 0; systemic leaves 0 / 0 / 0
* UCACCGAGAG (pool 0.183): inoculated region 0.660 / 0.719 / 0.627; leaf margin 0.138 / 0.101 / 0; systemic leaves 0 / 0 / 0
* UGGGCGCCCG (pool 0.327): inoculated region 0.122 / 0.0539 / 0.0553; leaf margin 0 / 0 / 0; systemic leaves 0 / 0 / 0
* UAGCCGGCCG (pool 0.261): inoculated region 0.104 / 0.108 / 0.0738; leaf margin 0 / 0 / 0; systemic leaves 0 / 0 / 0
* UCUGCGAGGG (pool 0.248): inoculated region 0.0348 / 0.0719 / 0.0553; leaf margin 0 / 0 / 0; systemic leaves 0 / 0 / 0
* UCUGCGUAAG (pool 0.118): inoculated region 0.0695 / 0.0539 / 0.0184; leaf margin 0 / 0 / 0; systemic leaves 0 / 0 / 0
* UAAGCGCUCG (pool 0.183): inoculated region 0.0695 / 0.126 / 0.0369; leaf margin 0 / 0 / 0; systemic leaves 0 / 0 / 0.0205
* UCACCGAUGG (pool 0.183): inoculated region 0.104 / 0.0719 / 0.129; leaf margin 0 / 0 / 0.116; systemic leaves 0 / 0 / 0
* UUACCGCUAG (pool 0.144): inoculated region 0.747 / 0.880 / 0.811; leaf margin 0.110 / 0.202 / 0.139; systemic leaves 0 / 0 / 0
* UCACCGCCGG (pool 0.144): inoculated region 0.0869 / 0.0180 / 0.0738; leaf margin 0.0276 / 0 / 0.0232; systemic leaves 0 / 0 / 0
* UGAACGACAG (pool 0.288): inoculated region 0.817 / 0.629 / 0.756; leaf margin 0.0828 / 0.0757 / 0.116; systemic leaves 0 / 0 / 0
* UACACGGCGG (pool 0.222): inoculated region 0.104 / 0.0898 / 0.129; leaf margin 0 / 0 / 0; systemic leaves 0 / 0 / 0
* UUGGCGCGUG (pool 0.275): inoculated region 0.104 / 0.0539 / 0.0738; leaf margin 0 / 0 / 0; systemic leaves 0 / 0 / 0
* UGAGCGCUAG (pool 0.196): inoculated region 0.104 / 0.0898 / 0.0922; leaf margin 0 / 0 / 0.0232; systemic leaves 0 / 0 / 0

Excerpt, the final 3 entries:

sequence,pool,inoculated region,leaf margin,systemic leaves
UACACGGCGG,0.222,0.104 / 0.0898 / 0.129,0 / 0 / 0,0 / 0 / 0
UUGGCGCGUG,0.275,0.104 / 0.0539 / 0.0738,0 / 0 / 0,0 / 0 / 0
UGAGCGCUAG,0.196,0.104 / 0.0898 / 0.0922,0 / 0 / 0.0232,0 / 0 / 0

The authors trace changes outside the varied positions to PCR and sequencing errors or to mutation in the plant; presence does not show that a variant is infectious alone. Wild type was 20.7 per thousand in the pool and the most common sequence in every sample (inoculated region 195, 198, 203; leaf margin 629, 591, 734; systemic leaves 942, 870, 868).

Values reported by Wu et al. 2024 (doi:10.1371/journal.ppat.1012142).